PubChem BioAssay AID504761, Drosophila RNAi Screening Center – 2011

Test: 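Genome-wide fly cell screen for genes dengue virus requires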 (primary screen)
System: D.Mel-2 cells from Drosophila
Reagent: long dsRNA against Drosophila genes
Treatment: infection with dengue virus type 2; dose and infection time not stated
Detection: 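Per well on two replicate plates, imaging gave the percent of cells positive for viral envelope protein, ranked by infection, and a nuclear count of cells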
Reading the numbers: infection score: higher = more virus-infected cells; cell count: higher = more cells in the well
Hit rule: 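Low infection ranks in the two replicates (chance level up to 0.065) followed by a retest with a 1.5-fold or larger significant decrease, p below 0.05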
Meaning of the calls: active = confirmed: knock-down lowers infection; inactive = not picked or not confirmed
The deposit covers about 22,000 reagents; below is an unselected part of those with a known target gene and a result. In the full data, 116 (0.52%) were called active. 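Calls depend on retest data that are not deposited; infection was ranked per plate without normalising between plates; the unit of the infection score is not given.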 Raw values vary from plate to plate and are shown uncorrected. The numbers tell different reagents against one gene apart. Names joined by + are all predicted targets of the reagent. Not stated in the record: the amount of reagent, the time to read-out.

| target gene | reagent no. | infection score, replicate 1 | infection score, replicate 2 | cell count, replicate 1 | cell count, replicate 2 | outcome |
| --- | --- | --- | --- | --- | --- | --- |
| Idgf1 | 1 | 16.7 | 11.7 | 6255 | 6765 | inactive |
| Idgf1 | 2 | 5.23 | 4.25 | 6114 | 6029 | inactive |
| CG15499 (retired record) | 1 | 6.98 | 1.95 | 6322 | 6370 | inactive |
| Oseg2 | 1 | 5.13 | 1.44 | 6068 | 6607 | inactive |
| CG14309 | 1 | 6.88 | 18.9 | 6704 | 6020 | inactive |
| CG7300 | 1 | 20.4 | 5.05 | 6447 | 6496 | inactive |
| CG7300 | 2 | 15.9 | 7.27 | 5627 | 5499 | inactive |
| blo | 1 | 3.49 | 12.1 | 5929 | 6484 | inactive |
| blo | 2 | 7.67 | 4.64 | 6533 | 6490 | inactive |
| row | 1 | 6.72 | 4.18 | 5502 | 5959 | inactive |
| row | 2 | 15.9 | 30.8 | 4914 | 4716 | inactive |
| CG31300 | 1 | 9.66 | 0.88 | 5715 | 6914 | inactive |
| CG31300 | 2 | 7.08 | 18 | 6722 | 6113 | inactive |
| Indy-2 + CG33934 | 1 | 14.2 | 3.19 | 6229 | 6451 | inactive |
| Indy-2 + CG33934 | 2 | 2.38 | 1.36 | 882 | 6161 | inactive |
| CG33268 | 1 | 1.63 | 3.71 | 5761 | 6125 | inactive |
| CG10226 | 1 | 3.35 | 5.2 | 6689 | 6571 | inactive |
| CG31077 | 1 | 7.7 | 5.77 | 6068 | 5299 | inactive |
| CG31077 | 2 | 3.73 | 5.14 | 6329 | 6523 | inactive |
| CG13404 | 1 | 7.31 | 5.09 | 5771 | 5976 | inactive |
| CG30324 | 1 | 9.25 | 23.1 | 7059 | 5789 | inactive |
| CG30324 | 2 | 5.98 | 5.74 | 6605 | 6552 | inactive |
| alpha-Spec | 1 | 8.5 | 17.1 | 6539 | 5187 | inactive |
| CG15729 (retired record) | 1 | 2.62 | 2.61 | 6562 | 6710 | inactive |
| CG15729 (retired record) | 2 | 18.3 | 19.9 | 4683 | 3940 | inactive |
| CG10041 | 1 | 3.41 | 3.89 | 6919 | 591 | inactive |
| CG10041 | 2 | – | 6.61 | 328 | 1347 | inactive |
| CG32188 + CG32189 | 1 | 20.8 | 12 | 3660 | 4950 | inactive |
| CG33158 | 1 | 20.2 | 2.39 | 5746 | 6558 | inactive |
| CG33158 | 2 | 1.29 | 1.3 | 5992 | 6396 | inactive |
| CG33158 | 3 | 1.59 | 1.74 | 6172 | 6249 | inactive |
| CG31664 | 1 | 5.24 | 5.68 | 6911 | 6604 | inactive |
| CG9444 | 1 | 3.88 | 4.57 | 6088 | 6305 | inactive |
| Arl2 | 1 | 7.81 | 3.58 | 6708 | 6787 | inactive |
| CrzR | 1 | 2.96 | 6.09 | 6345 | 6357 | inactive |
| CrzR | 2 | 11.2 | 3.54 | 6141 | 6700 | inactive |
| CG4483 | 1 | 6.22 | 5.38 | 6448 | 6337 | inactive |
| Iris | 1 | 12.6 | 2.98 | 5784 | 6703 | inactive |
| nebu | 1 | 8.75 | 18.3 | 5517 | 5722 | inactive |
| nebu | 2 | 1.33 | 1.51 | 5426 | 6147 | inactive |
| CG40282 (retired record) | 1 | 0.43 | 1.11 | 4922 | 4756 | inactive |
| bsh | 1 | 18 | 5.98 | 6536 | 6354 | inactive |
| bsh | 2 | 4.35 | 5.41 | 5361 | 5473 | inactive |
| alpha-Catr | 1 | 1.98 | 24.5 | 1214 | 3306 | inactive |
| alpha-Catr | 2 | 12.1 | 4.37 | 6118 | 6520 | inactive |
| PIG-B | 1 | 9.14 | 13.1 | 4902 | 6500 | inactive |
| PIG-B | 2 | 16.6 | 20.4 | 2487 | 5468 | inactive |
| CG32681 | 1 | 7.36 | 14 | 6685 | 6143 | inactive |
| CG14085 | 1 | 1.55 | 1.37 | 5990 | 6328 | inactive |
| Mpi | 1 | 1.12 | 2.85 | 6538 | 6675 | inactive |
| Hsc70-1 | 1 | 3.62 | 2.92 | 5721 | 5865 | inactive |
| Hsc70-1 | 2 | 4.86 | 2.19 | 6463 | 6489 | inactive |
| SdhC | 1 | 18 | 6.71 | 3936 | 6955 | inactive |
| mRpL44 | 1 | 7.53 | 16.6 | 5992 | 5690 | inactive |
| mRpL44 | 2 | 4.47 | 7.33 | 5777 | 5812 | inactive |
| CG5726 | 1 | 4.88 | 19 | 5796 | 5348 | inactive |
| CG5726 | 2 | 5.96 | 6.37 | 6649 | 6291 | inactive |
| CG3505 | 1 | 12.4 | 13.4 | 6033 | 4558 | inactive |

Ordered by “cell count, replicate 1” (low to high): 10 of the entries above
| target gene | reagent no. | infection score, replicate 1 | infection score, replicate 2 | cell count, replicate 1 | cell count, replicate 2 | outcome |
| --- | --- | --- | --- | --- | --- | --- |
| alpha-Catr | 1 | 1.98 | 24.5 | 1214 | 3306 | inactive |
| PIG-B | 2 | 16.6 | 20.4 | 2487 | 5468 | inactive |
| PIG-B | 1 | 9.14 | 13.1 | 4902 | 6500 | inactive |
| bsh | 2 | 4.35 | 5.41 | 5361 | 5473 | inactive |
| Hsc70-1 | 1 | 3.62 | 2.92 | 5721 | 5865 | inactive |
| CG14085 | 1 | 1.55 | 1.37 | 5990 | 6328 | inactive |
| alpha-Catr | 2 | 12.1 | 4.37 | 6118 | 6520 | inactive |
| bsh | 1 | 18 | 5.98 | 6536 | 6354 | inactive |
| Mpi | 1 | 1.12 | 2.85 | 6538 | 6675 | inactive |
| CG32681 | 1 | 7.36 | 14 | 6685 | 6143 | inactive |
